In patent US20100093811A1 (priority 2007, published 2010):

Legend:
wild-type HIV-1 protease = wild-type HIV-1 protease (Human immunodeficiency virus type 1 group M subtype B, UniProt P04585); assay: Assay for inhibition of microbial expressed HIV protease; settings: read-out: Enzyme Inhibition - IC50, wild-type HIV-1 protease expressed in E. coli, peptide substrate, pH 5.5
[1] = test system: acute HIV infection of T-lymphoid cells; assay: Assay for inhibition of HIV replication (spread assay); settings: inhibition of HIV-1 replication, 10% FBS
Experimental: • Assay for Inhibition of HIV Replication
Assays for the inhibition of acute HIV infection of T-lymphoid cells were conducted in accordance with Vacca, J. P. et al., Proc. Natl. Acad. Sci. USA 1994, 91: 4096.

SMILES	IC50 (wild-type HIV-1 protease) [nM]	Spread - IC95 [1] [nM]	IC50 (wild-type HIV-1 protease; tested form: HCl) [nM]	Spread - IC95 ([1]; tested form: HCl) [nM]
CC[C@@H](CCC[C@@H](CO)N(C(C)C)S(=O)(=O)c1ccc([C@H](C)O)cc1)NC(=O)[C@@H](NC(=O)OC)C(c1ccccc1)c1ccccc1	0.133	41	–	–
CN[C@H](C(=O)N[C@@H](C)CCC[C@@H](CO)N(C(C)C)S(=O)(=O)c1ccc(N)cc1)C(c1ccccc1)c1ccccc1	–	–	0.131	31

Where two headings read alike, the source gives them in different places.
